{"source": "patent US20020136789A1", "about": "“Use of tagetes minuta oil and its components as antiviral agents” (COUNCIL OF SCIENTIFIC & INDUSTRIAL RESEARCH, priority 2001, published 2002)", "origin": "cited, not measured here", "target": "HIV integrase (Human immunodeficiency virus type 1 group M subtype B, UniProt P04585)", "conditions": "cited from earlier work", "data": [{"substance": "quercetin", "values": [{"measurement": "IC50 against HIV integrase", "value": "18.1 ± 1.3", "unit": "µg/mL"}]}]}
